Pooled drug test results. Numbers come from NIAID ChemDB, via PubChem.

All rows: enzyme or target tests

Percent inhibition refers to the dose given; in toxicity tests it is the harm to the cells. ICn is the concentration giving n% inhibition. Blank or dashed fields: not listed here. Lines come from different laboratories, so protocols vary. a–b is a range or a potency band.

SMILES | method | strain or isolate | read-out | target | agent | tested at | value
O=C(Nc1ccsc1-c1nc(C(=O)O)c(O)c(=O)[nH]1)NC(CO)c1ccccc1 |  |  | IC50 | HCV polymerase | Hepatitis C virus |  | <25 µM
Cc1ccc(/C=C2/SC(=S)N(NS(=O)(=O)c3ccccc3)C2=O)cc1 |  |  | IC50 | NS5B polymerase | Hepatitis C virus |  | ≤30 µM
O=C(Nc1ccc2[nH]ncc2c1)c1cc(NCc2ccccn2)c(F)cc1F |  |  | IC50 | Reverse transcriptase | Hepatitis B virus |  | 0.1–1 µg/mL
CC(=O)N[C@@H](CC(=O)O)C(=O)N[C@H](CC(C(=O)O)C(=O)O)C(=O)N[C@H](C(=O)N[C@@H](CCC(=O)O)C(=O)N[C@H](C(=O)N[C@@H](CS)C(=O)C(=O)O)c1ccccc1)C(c1ccccc1)c1ccccc1 |  |  | Ki | NS3/NS4A serine protease | Hepatitis C virus |  | 0.00009 µM
O=C(O)c1cnn2c(C3CCCCC3)c(-c3ccoc3)cnc12 |  |  | IC50 | NS5B polymerase | Hepatitis C virus |  | 1–10 µM
C=C(C[C@H](NC(=O)[C@H](CCC(=O)O)NC(=O)[C@H](CCSC)NC(=O)[C@H](CCC(=O)O)NC(=O)[C@@H](N)CC(=O)O)C(=O)N[C@@H](CS)C(=O)O)c1ccccc1/C=C\C |  |  | IC50 | NS3 protease | Hepatitis C virus |  | 0.8 µM
O=C(O)c1sc(-c2ccccc2)cc1N(CC1CCCCNC1)C(=O)c1ccc(Cl)cc1Cl |  |  | IC50 | NS3 ATPase | Hepatitis C virus |  | <5 µM
C=CCN(CC(=O)O)C(=O)[C@H](CCC(=O)O)NC(=O)[C@H](CCC(=O)O)NC(=O)[C@H](CCSC)NC(=O)[C@H](CCC(=O)O)NC(=O)[C@@H](N)CC(=O)O |  |  | IC50 | NS3 protease | Hepatitis C virus |  | 12 µM
O=C1/C(=C\c2ccc(Br)c(Br)c2)SC(=S)N1NS(=O)(=O)c1ccccc1 |  |  | IC50 | NS5B polymerase | Hepatitis C virus |  | ≤30 µM
O=c1[nH]c2ccccc2c(O)c1C1=NS(=O)(=O)c2ccccc2N1 |  |  | IC50 | RNA-dependent RNA polymerase | Hepatitis C virus |  | >50 µM
CC1=NCCN1c1cc(C(=O)Nc2ccc3[nH]ncc3c2)c(F)cc1F |  |  | inhibition | Nonstructural protein 5B | Hepatitis C virus | 1 µg/mL | 10%
O=C(O)[C@H](Cc1ccccc1)N(Cc1ccc(-c2cc3ccccc3o2)s1)C(=O)c1ccc(Cl)cc1Cl |  |  | IC50 | RNA-dependent RNA polymerase | Hepatitis C virus |  | <5 µM
CC(=O)N[C@@H](CC(=O)O)C(=O)N[C@H](CC(C(=O)O)C(=O)O)C(=O)N[C@@H](Cc1cccc2ccccc12)C(=O)N[C@@H](CCC(=O)O)C(=O)N[C@@H](CC1CCCCC1)C(=O)N[C@@H](CS)C(=O)C(=O)O |  |  | Ki | NS3/NS4A serine protease | Hepatitis C virus |  | 0.00007 µM
CC(C)[C@H](NC(=O)[C@H](CC(=O)O)NC(=O)[C@@H](N)CCC(=O)O)C(=O)N[C@H](C(=O)N(C)CC(=O)N[C@@H](CS)C(=O)O)C(C)C |  |  | IC50 | NS3 protease | Hepatitis C virus |  | 21 µM
O=C(Nc1cscc1-c1nc(C(=O)O)c(O)c(=O)[nH]1)NS(=O)(=O)c1cccc([N+](=O)[O-])c1 |  |  | IC50 | HCV polymerase | Hepatitis C virus |  | <25 µM
C=C[C@@H]1C[C@]1(NC(=O)[C@@H]1C[C@@H](Oc2nccc3ccc(Br)cc23)CN1C(C)=O)C(=O)NS(=O)(=O)C1CC1 | FRET | 1b C159S | IC50 | Nonstructural protein 3/4A | Hepatitis C virus |  | 1.58 µM
CC(CC(F)(F)F)C(=O)Nc1ccsc1-c1nc(C(=O)O)c(O)c(=O)[nH]1 |  |  | IC50 | HCV polymerase | Hepatitis C virus |  | <25 µM
O=C(Nc1ccc2cn[nH]c2c1)c1cc(N2CCN(CCO)CC2)c(F)cc1F |  |  | inhibition | Nonstructural protein 5B | Hepatitis C virus | 10 µg/mL | 38%
O=C(O)[C@H](Cc1ccccc1)N(Cc1cccc(Br)c1)C(=O)c1ccccc1Cl |  |  | IC50 | RNA-dependent RNA polymerase | Hepatitis C virus |  | >20 µM
COCCNc1nc(Nc2ccc3[nH]ncc3c2)nc(OC)n1 |  |  | inhibition | NS5B polymerase | Hepatitis C virus | 0.1 µg/mL | 46%
CN1CCNCCC1c1cc(C(=O)Nc2ccc3[nH]ncc3c2)c(F)cc1F |  |  | inhibition | Reverse transcriptase | Hepatitis B virus | 0.1 µg/mL | 49%
Cc1cc(SC2=C(O)CC(CCc3ccc(O)cc3)(C3CCCC3)OC2=O)c(C(C)(C)C)cc1N |  |  | IC50 | NS5B polymerase | Hepatitis C virus |  | 1 µM
O=C(Nc1ccc2cn[nH]c2c1)c1cc(N2CCC(O)CC2)c(F)cc1F |  |  | inhibition | Nonstructural protein 5B | Hepatitis C virus | 10 µg/mL | 75%
Cc1cc(S(=O)(=O)Nc2cc(-c3ccc(Cl)cc3)sc2C(=O)O)c(C)cc1Cl |  |  | IC50 | NS3 ATPase | Hepatitis C virus |  | <5 µM
CSCC[C@H](NC(=O)[C@H](CCC(=O)O)NC(=O)[C@H](CC(=O)O)NC(C)=O)C(=O)N[C@@H](CCC(=O)O)C(=O)N[C@@H](CC1CCCCC1)C(=O)N[C@@H](CS)C(=O)O |  |  | Ki | NS3/NS4A serine protease | Hepatitis C virus |  | 0.18 µM
O=C(O)c1nc(-c2cccc(OCc3ccccc3)c2[N+](=O)[O-])[nH]c(=O)c1O |  |  | IC50 | HCV polymerase | Hepatitis C virus |  | <100 µM
O=C(c1ccc(CN(c2ccc(Cl)cc2Cl)[C@@H](Cc2ccccc2)C(=O)O)cc1)c1ccc(F)c(F)c1 |  |  | IC50 | RNA-dependent RNA polymerase | Hepatitis C virus |  | <5 µM
CC(=O)N[C@@H](CC(=O)O)C(=O)N[C@@H](Cc1ccc(O)cc1)C(=O)N[C@H](C(=O)N[C@@H](CCC(=O)O)C(=O)N[C@@H](CC1CCCCC1)C(=O)N[C@@H](CS)C(=O)C(=O)O)C(c1ccccc1)c1ccccc1 |  |  | Ki | NS3/NS4A serine protease | Hepatitis C virus |  | 145 µM
CC(C)C(=O)N(Cc1ccccc1Cl)c1cc(-c2ccccc2)sc1C(=O)O |  |  | IC50 | NS3 ATPase | Hepatitis C virus |  | 5–20 µM
O=C(Nc1ccc2[nH]ncc2c1)c1cc(N2CCN(CCO)CC2)c(F)cc1F |  |  | inhibition | Nonstructural protein 5B | Hepatitis C virus | 10 µg/mL | 51%
O=C1/C(=C\c2ccc(F)cc2)SC(=S)N1NS(=O)(=O)c1ccccc1 |  |  | IC50 | NS5B polymerase | Hepatitis C virus |  | ≤30 µM
CCc1cc(Cl)ccc1C(=O)N(Cc1cccc(Br)c1)[C@@H](Cc1ccccc1)C(=O)O |  |  | IC50 | RNA-dependent RNA polymerase | Hepatitis C virus |  | <5 µM
CN(C(=O)c1ccccc1)c1cc(-c2ccccc2)sc1C(=O)O |  |  | IC50 | NS3 ATPase | Hepatitis C virus |  | >20 µM
O=C(NCc1cccc(OC(F)(F)F)c1)Nc1cccc(-c2nc(C(=O)O)c(O)c(=O)[nH]2)c1 |  |  | IC50 | HCV polymerase | Hepatitis C virus |  | <100 µM
CC(C)N(C(=O)C1CCCCC1)c1cc(-c2ccccc2)sc1C(=O)O |  |  | IC50 | NS3 ATPase | Hepatitis C virus |  | 5–20 µM
O=C(O)c1ccc2c(c1)nc(-c1ccoc1)n2C1CCCCC1 |  |  | IC50 | NS5B polymerase | Hepatitis C virus |  | 1.6 µM
COc1cccc(COC(=O)Nc2ccsc2-c2nc(C(=O)O)c(O)c(=O)[nH]2)c1OC |  |  | IC50 | HCV polymerase | Hepatitis C virus |  | <25 µM
CC(=O)c1ccc(-c2cc(NS(=O)(=O)c3ccccc3C)c(C(=O)O)s2)cc1 |  |  | IC50 | NS3 ATPase | Hepatitis C virus |  | <5 µM
COc1cccc(CNC(=O)Nc2cccc(-c3nc(C(=O)O)c(O)c(=O)[nH]3)c2)c1 |  |  | IC50 | HCV polymerase | Hepatitis C virus |  | <100 µM
CC(C)N(C(=O)c1ccc(Cl)cc1Cl)c1cc(C2CCNCC2)sc1C(=O)O.O=C(O)C(F)(F)F |  |  | IC50 | NS3 ATPase | Hepatitis C virus |  | >20 µM
CSCC[C@H](NC(=O)[C@H](CCC(=O)O)NC(=O)[C@@H](N)CC(=O)O)C(=O)N[C@@H](CCC(=O)O)C(=O)N[C@@H](CCC(=O)O)C(=O)NCCS |  |  | IC50 | NS3 protease | Hepatitis C virus |  | >64 µM
O=C(Nc1ccsc1-c1nc(C(=O)O)c(O)c(=O)[nH]1)OCC1CCCC1 |  |  | IC50 | HCV polymerase | Hepatitis C virus |  | <25 µM
CCC(=O)N(Cc1ccc(C(C)(C)C)cc1)c1cc(-c2ccccc2)sc1C(=O)O |  |  | IC50 | NS3 ATPase | Hepatitis C virus |  | 5–20 µM
O=C1/C(=C\c2cccc(OC(F)(F)F)c2)SC(=S)N1NS(=O)(=O)c1ccccc1 |  |  | IC50 | NS5B polymerase | Hepatitis C virus |  | ≤30 µM
Cc1ccccc1S(=O)(=O)Nc1cc(-c2cccc3cccnc23)sc1C(=O)O |  |  | IC50 | NS3 ATPase | Hepatitis C virus |  | >20 µM
CSc1nc(Nc2ccc(N3CCOCC3)cc2)cc(N2CCN(C(=O)OC(C)C)CC2)n1 |  |  | inhibition | NS5B polymerase | Hepatitis C virus | 0.1 µg/mL | 55%
O=C1/C(=C\c2ccc(Br)c(Br)c2)SC(=S)N1NS(=O)(=O)c1ccc(F)cc1 |  |  | IC50 | NS5B polymerase | Hepatitis C virus |  | ≤30 µM
CSCC[C@H](NC(=O)CCC(=O)O)C(=O)N[C@@H](CCC(=O)O)C(=O)N[C@@H](CCC(=O)O)C(=O)N[C@@H](CS)C(=O)O |  |  | IC50 | NS3 protease | Hepatitis C virus |  | 77 µM
O=C1NC(=S)S/C1=C/c1ccc(-c2cccc(Cl)c2Cl)o1 |  |  | IC50 | NS5B polymerase | Hepatitis C virus |  | ≤30 µM
CSCC[C@H](NC(=O)[C@H](CCC(=O)O)NC(=O)CCC(=O)O)C(=O)N[C@@H](CCC(=O)O)C(=O)N[C@@H](CCC(=O)O)C(=O)N[C@@H](CS)C(=O)O |  |  | IC50 | NS3 protease | Hepatitis C virus |  | 1.3 µM
COc1ccc(-c2ccc(/C=C3/SC(=S)NC3=O)s2)cc1 |  |  | IC50 | NS5B polymerase | Hepatitis C virus |  | ≤30 µM
CC[C@H](C)[C@H](NC(=O)[C@H](CC(C)C)NC(=O)[C@H](CCC(=O)O)NC(=O)[C@@H](N)CC(=O)O)C(=O)N[C@@H](CC1CCCCC1)C(=O)N[C@@H](CS)C(=O)O |  |  | IC50 | NS3 protease | Hepatitis C virus |  | 0.06 µM